Key:
[1] = system: X4 tropic HIV-1 NL4-3 Luc; experiment: Infection of PBMC with X4 tropic HIV-1 (luciferase)
[2] = system: R5 tropic HIV-1 005-pf-103; experiment: Infection of PBMC with R5 tropic HIV-1 (luciferase)
[3] = system: X4 tropic NL4-3 Luc and R5 tropic 005pf103 Luc; experiment: HIV-1 infection of macrophages (luciferase); settings: 3 days
[4] = system: HIV-1 Env mediated cell-cell fusion; experiment: HIV-1 Env mediated cell-cell fusion assay (293T / CEMX174 5.25 M7); settings: 10 μg/ml compared with 0 μg/ml, one day
[5] = system: X4-tropic HIV-1 NL4-3 and R5 tropic HIV-1 YU2; experiment: Correlation of SEVI mediated increase with absolute viral infectivities in TZM-bl cells; format: cell-based; settings: 10 μg/ml SEVI, decreasing p24 concentrations

GIHKQKEKSRLQGGVLVNEILNHMKRATQIPSYKKLIMY (Synthetic fragment of the PAP protein) [PAP(248-286)]
luciferase activities increased compared to control samples containing no peptide ([1]; 10 μg/ml SEVI, 10 ng p24 antigen, PBMC): 28 fold
luciferase activities ([1]; 10 μg/ml SEVI, 10 ng p24 antigen, PBMC, 3 days): 589,840 RLU/s
effect on infection of PBMC ([1]; X4 tropic virus, 3 days): dose dependently promoted infection of PBMC
luciferase activities increased compared to control samples containing no peptide ([2]; 10 μg/ml SEVI, 1 ng p24 antigen, PBMC): 34 fold
luciferase activities ([2]; 10 μg/ml SEVI, 1 ng p24 antigen, PBMC, 3 days): 28,520 RLU/s
effect on infection of PBMC ([2]; R5 tropic virus, 3 days): dose dependently promoted infection of PBMC
effect on HIV-1 infection of macrophages [3]: enhanced HIV-1 infection of macrophages independently of the coreceptor used
fusion activity (luciferase activities) [4]: no increase in fusion activity could be observed

KQKEKSRLQGGVLVNEILNHMKRATQIPSYKKLIMY (Synthetic fragment of the PAP protein) [PAP(251-286)]
relation of x-fold increase of infection to absolute infectivities without peptide [5]: The higher the absolute infection rates were, the lower was the effect on SEVI mediated enhancement of infection

— patent US8299031B2, “Human semen enhancer of viral infection peptides (SEVI) and their use” (Viro Pharmaceuticals GmbH & Co. KG, priority 2006, dated 2012)
